# Results deposited as PubChem BioAssay AID1224833 (University of Georgia, 2016)
# Aim: 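Human genes whose knock-down alters rotavirus replication in monkey cells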 (primary screen)
# Cell system: monkey MA104 kidney cells
# Reagents: siRNA pool against human genes, 50 nM
# Duration: 48 h knock-down before infection; read 24 h after infection
# Challenge: infection with rotavirus strain RV3 two days after transfection; infectious dose for this stage not given
# Measurement: 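Rotavirus antigen per well by fluorescent immunoassay, normalised to non-targeting control wells on each plate and given as a standard z-score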
# Direction: z-score vs non-targeting control: higher = more rotavirus replication than with non-targeting control
# Active means: In these data the active calls have z-score vs non-targeting control at about -1 or lower, or at about 1 or higher
# Calls: active = z-score beyond 1 either way; inactive = z-score within 1 of zero
# Shown is one part, drawn at random, of about 12,000 reagents tested. About 5,600 of them (46%) were called active. 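Active calls cover z-scores past 1 in both directions, so they include lowered as well as raised rotavirus replication.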 Reagent sequences are not shown.
gene,z-score vs non-targeting control,Call
TPGS2,-0.226,inactive
PLAAT2,-0.849,inactive
C2CD5,-1.58,active
DDX17,1.94,active
PROCA1,-0.341,inactive
HLA-A,-0.163,inactive
CCT7,-1.1,active
ANKRD27,-0.953,inactive
PYGO2,-0.0285,inactive
CFAP47,0.0511,inactive
KRT16,-0.974,inactive
EID2,1.16,active
SERPINF1,1.29,active
SOST,0.719,inactive
NDUFA10,-1.62,active
TLR10,-0.539,inactive
APOC4,0.605,inactive
RGS4,-1.23,active
SMAP1,-1.1,active
GPHA2,-1.11,active
NR5A2,1.52,active
RELCH,0.425,inactive
TMTC1,0.736,inactive
MAN1C1,-1.23,active
ZNG1C,0.53,inactive
CDH16,-0.817,inactive
DOLK,0.776,inactive
TNFRSF13B,-3.27,active
VASP,-0.917,inactive
UGT1A3,-0.809,inactive
IKZF5,-0.228,inactive
PPDPFL,-0.39,inactive
EVA1C,-0.393,inactive
CPSF3,-0.91,inactive
KRT10,0.054,inactive
PRDM8,-1.77,active
DNAAF11,-1.79,active
SNTB2,1.09,active
TOX3,-0.62,inactive
GIMAP6,-0.403,inactive
RAPH1,-0.88,inactive
NR1I3,-0.825,inactive
IQSEC3,0.467,inactive
BRD1,0.822,inactive
CEBPG,-0.712,inactive
MACROH2A1,1.63,active
MYO5A,-1.13,active
HS3ST6,1.43,active
GRPR,3.28,active
ABHD12,0.317,inactive
KLHL42,-1.45,active
PCDH9,-1.02,active
PCDHGB4,0.928,inactive
PLEK2,-0.624,inactive
FBLN5,0.96,inactive
LINS1,-0.488,inactive
GBP7,0.732,inactive
ATG4C,0.922,inactive
HGH1,0.671,inactive
GRM3,-1.82,active
SLC5A5,-3.02,active
FAABTP,0.145,inactive
SPATA16,-0.457,inactive
HOXA1,2.68,active
PARN,-1.31,active
FDFT1,0.709,inactive
FAT4,-0.658,inactive
ST8SIA4,-1.09,active
CXCL8,-0.637,inactive
SENP6,0.527,inactive
SLC2A12,-0.582,inactive
ZNF750,0.732,inactive
TSPAN2,-0.542,inactive
EPC2,-0.944,inactive
SCAI,0.606,inactive
BCAM,0.673,inactive
FGF23,-0.909,inactive
STAT4,-1.68,active
FASTKD4,-1.21,active
DHX57,-0.943,inactive
NPTX1,0.888,inactive
CDIN1,-0.483,inactive
ANGEL1,0.394,inactive
MTFMT,-1.66,active
TAF1A,2.23,active
SH3BP4,-2.26,active
ZNF224,-0.713,inactive
GATAD1,-0.265,inactive
LIME1,0.34,inactive
TBC1D10B,-0.872,inactive
PRDX6,1.21,active
DIRAS3,-1.3,active
DDX53,-0.128,inactive
SERAC1,-0.142,inactive
OR7A17,-1.21,active
SLC25A29,0.689,inactive
SNRNP40,3.33,active
ZNF510,-0.344,inactive
PAM,1.94,active
MAGEL2,-1.06,active
SLC6A14,-0.648,inactive
NUCLEOLIN,0.529,inactive
REPIN1,-1.65,active
RBM25,-0.557,inactive
PDE6C,-0.618,inactive
BAIAP2,-2.11,active
ZNF84,-0.654,inactive
SCAND1,-0.973,inactive
TOE1,0.771,inactive
CAPNS1,0.641,inactive

Targets listed so far whose target name begins with B or b:
gene,z-score vs non-targeting control,Call
BRD1,0.822,inactive
BCAM,0.673,inactive
BAIAP2,-2.11,active
